Compound potency records, mixed from different reports. Data source: NIAID ChemDB in PubChem.

All rows: toxicity to cultured cells; read-out: CC50

a–b is a range or a potency band.

SMILES	read by	cells	value
O=c1cc(-c2ccc(O)c(O)c2)oc2cc(OC3OC(CO)C(O)C(O)C3O)cc(O)c12	-	HEP-2	>25 µg/mL
C/C(=C\c1cn(CCN(C)C)c2ccc(C#N)cc12)C(=O)Nc1ccc(C(C)(C)C)cc1	MTT	Huh7.5	2.1 µM
Cc1nc2cc(OC(F)(F)F)ccc2n1-c1ccc(C(=O)NC2CC2)s1	resazurin	Dermal fibroblast	>62 µM
CCCCCSc1nc(N)nc2c1ncn2/C=C1/C[C@@H]1CO	-	MEF	156 µM
COc1c2c(c(OC)c3ccccc13)CN(c1ccc(Br)cc1)C(=N)C2	neutral red	J774A.1 macrophages	21.01 µM
C[C@H](NC(=O)[C@H](Cc1ccccc1)C[C@@H](O)[C@H](Cc1ccccc1)NC(=O)OC(C)(C)C)C(=O)N[C@@H]1C(=O)N(C)c2ccccc2-c2ccccc21	-	U-2 OS	>10 µM
N#Cc1c(NC2CCCCC2)s[nH]c1=O	-	Huh7	>50 µM
Cc1nnc2c3ccccc3c(N3CCc4cc(O)c(O)cc4C3)nn12	-	PBMC	3.28 µM
C[C@]1(Cn2cc(-c3ccc(Oc4ccccc4)cc3)nn2)Cn2cc([N+](=O)[O-])nc2O1	MTT	J774	>40 µg/mL
O=C(N[C@@H](C(=O)N1CCC[C@H]1C(=O)Nc1nc(-c2ccccc2)cs1)c1ccccc1)C1CC1	MTT	Huh7.7	>50 µM
CCCN(Cc1ccccc1OCC(=O)OCC)C(=O)c1ccc(-c2ccc3c(c2)OCO3)cc1	-	RAJI	>20 µM
Cc1cc(NS(=O)(=O)c2ccc(NC(=S)Nc3ccc(Br)cc3)cc2)no1	MTT	CEM174	>100 µM
c1ccc2c(c1)CCN(c1nn3c(-c4cscn4)nnc3c3ccccc13)C2	-	PBMC	2.07 µM
Cc1cn([C@H]2C[C@H](O)[C@@H](CO)O2)c(=S)nc1N	-	RPMI8226	>300.8 µM
Cc1cc2ccccc2nc1Nc1ccc(OC(F)(F)F)cc1	-	PBMCs	0.001 µM
N=c1cc2c(cn1-c1ccccc1)C(=O)c1ccccc1C2=O	neutral red	J774A.1 macrophages	31.25 µM
C/C(=C\c1cn(C(=O)OCc2ccccc2)c2ccc(C#N)cc12)C(=O)Nc1ccc(C(C)(C)C)cc1	MTT	Huh7.5	21.8 µM
Cc1nnc2c3ccccc3c(N3CCC4CCCCC4C3)nn12	-	PBMC	51.9 µM
C=CCOc1nc(N)nc2c1ncn2/C=C1/C[C@@H]1CO	-	BSCL-1	118 µM
CC(C)(CF)C(=O)Nc1ccc(NS(=O)(=O)c2cccc3ccccc23)cc1	-	Human embryonic lung fibroblasts	62.5 µM
COc1c2c(c(OC)c3ccccc13)CN(c1ccc([N+](=O)[O-])cc1)C(=N)C2	neutral red	J774A.1 macrophages	49.23 µM
CCCCOC(=O)c1ccc(NC(=S)Nc2ccc(S(=O)(=O)Nc3cc(C)on3)cc2)cc1	MTT	CEM174	>100 µM
Cc1cc(O)c(O)c(O)c(=O)c1	absorbance	CEM-SS	2.1 µM
CCc1cn([C@@H]2C[C@H](O)[C@@H](CO)O2)c(=O)[nH]c1=O	-	F5000 (human embryo)	1000 µM
Nc1ccc(-c2ccc(Nc3cc(=O)n(O)c4ncccc34)cc2)cc1	ATP / luminescence	HOS	2.44 µM
Cc1cc(NS(=O)(=O)c2ccc(NC(=S)Nc3ccc(C#N)cc3)cc2)no1	MTT	CEM174	>100 µM
COc1ccc2c(c1)CCN(c1nn3c(C4CC4)nnc3c3ccccc13)C2	-	PBMC	3 µM
O=c1[nH]c(=S)n([C@@H]2O[C@H](CO)[C@@H](O)[C@@H]2O)cc1/C=C/Br	-	RPMI8226	>213 µM
Cc1cccc(Nc2s[nH]c(=O)c2C#N)c1	-	Huh7	>50 µM
CC(C)(CCl)C(=O)Nc1ccc(NS(=O)(=O)c2cccc3ccccc23)cc1	-	Human embryonic lung fibroblasts	33.3 µM
COc1ccc(Cc2cc(C3CCN(C(=O)c4ccc(OC)c(OC)c4)CC3)nc(N)n2)cc1	-	Jurkat cells (PMA-stimulated)	>5 µM
Cc1c(N2CCc3ccccc3C2)nn2c(C)nnc2c1C	-	PBMC	74.7 µM
C[C@]1(Cn2cc(CN3CCOCC3)nn2)Cn2cc([N+](=O)[O-])nc2O1	MTT	J774	>40 µg/mL
CCCCCOc1nc(N)nc2c1ncn2/C=C1/C[C@@H]1CO	-	BSCL-1	109 µM
CN(C)c1cccc2c(S(=O)(=O)Nc3ccc(NC(=O)C(C)(C)CF)cc3)cccc12	-	Mouse fibroblast cell lines	31.3 µM
O=C1O[C@H]([C@@H](O)CO)C(O)=C1O	-	VB	>150 µg/mL
CN(C)c1ccc(Nc2s[nH]c(=O)c2C#N)c2ccccc12	-	Huh7	>50 µM
CC(C)c1ccc(OCc2cn(C[C@@]3(C)Cn4cc([N+](=O)[O-])nc4O3)nn2)cc1	MTT	J774	>40 µg/mL
N=c1cc2c(cn1-c1ccc(Cl)cc1)C(=O)c1ccccc1C2=O	neutral red	J774A.1 macrophages	28.51 µM
CC(C)(CO)C(=O)Nc1ccc(NS(=O)(=O)c2cccc3ccccc23)cc1	-	Human embryonic lung fibroblasts	125 µM
Nc1nc(Cc2ccc(OCc3ccccc3)cc2)cc(C2CCN(C(=O)c3ccc4c(c3)OCO4)CC2)n1	-	Jurkat cells (PMA-stimulated)	1.2 µM
Cc1ccc(-c2ccccc2)n1NC(=O)c1ccncc1	MTT	Vero cell	>100 µg/mL
COc1cc(O)c2c(c1)C(=O)C(CC(C)=O)=C(C)C2=O	MTT	Panc-1	73.5 µg/mL
CCOC(=O)CCCCCOc1cccc(CN(C(=O)c2ccc(-c3cccc(Oc4ccccc4)c3)cc2)C(C)C)c1	-	BJ	13.5–20 µM
N#Cc1c(Nc2cccc(Br)n2)s[nH]c1=O	-	Huh7	>50 µM
C/C(=C\c1cn(S(=O)(=O)Cc2ccccc2)c2ccc(C#N)cc12)C(=O)Nc1ccc(C(C)(C)C)cc1	MTT	Huh7.5	17 µM
COc1ccc(Cc2cc(C3CCN(C(=O)c4ccc5c(c4)OCCO5)CC3)nc(N)n2)cc1	-	Jurkat cells (PMA-stimulated)	>5 µM
O=C(O)/C=C/c1cn([C@@H]2O[C@H](CO)[C@@H](O)[C@@H]2O)c(=S)[nH]c1=O	-	RPMI8226	>238.4 µM
COC1=CC(=O)c2c(O)c(C)c3cc(C)oc3c2C1=O	MTT	Panc-1	2.6 µg/mL
Cc1ccc(-n2cc3c(cc2=N)C(=O)c2ccccc2C3=O)cc1	neutral red	J774A.1 macrophages	18.15 µM
CC(C)c1ccc(Nc2s[nH]c(=O)c2C#N)cc1	-	Huh7	<50 µM
CS(=N)(=O)c1ccc(C(=O)NC23CC(c4nc5ccc(Cl)cc5o4)(C2)C3)o1	absorbance	Primary human hepatocytes	>100 µg/mL
COc1ccc2c(c1)c(/C=C(\C)C(=O)Nc1ccc(C(C)(C)C)cc1)cn2S(=O)(=O)Cc1ccccc1	MTT	Huh7.5	66 µM
COC(=O)c1c(Nc2ccc(-c3ccc(N)cc3)cc2)c2cccnc2n(O)c1=O	ATP / luminescence	HOS	250 µM
Nc1nc(NC2CC2)c2ncn(/C=C3/C[C@@H]3CO)c2n1	-	MEF	>36.7 µM
N#Cc1c(Nc2ccc(Cc3ccccc3)cc2)s[nH]c1=O	-	Huh7	>50 µM
CCCCCCCCCCCCOS(=O)(=O)O	-	1G5	829.2 µM
Cc1cc(NS(=O)(=O)c2ccc(NC(=S)Nc3ccc4ccccc4c3)cc2)no1	MTT	CEM174	>100 µM
CCOC(=O)CCCCCOc1cccc(CN(C(=O)c2ccc(-c3cccc(CC(=O)O)c3)cc2)C(C)C)c1	-	RAJI	>20 µM
Cc1cc(NS(=O)(=O)c2ccc(NC(=S)Nc3ccc(Cl)c(Cl)c3)cc2)no1	MTT	CEM174	>100 µM
CC1(C)CCC[C@]2(C)C3=C(C[C@H](C4=CCOC4=O)C3)C(=O)C[C@@H]12	absorbance	P-388	44.8 µM
N=c1cc2c(cn1-c1ccc(C(=O)O)cc1)C(=O)c1ccccc1C2=O	neutral red	J774A.1 macrophages	145 µM
CC(O)c1cn([C@@H]2O[C@H](CO)[C@@H](O)[C@@H]2O)c(=S)nc1N	-	RPMI8226	>244.8 µM
c1coc(-c2nnc3c4ccccc4c(N4CCc5ccccc5C4)nn23)c1	-	PBMC	0.78 µM
Cc1cccc(NC(=S)Nc2ccc(S(=O)(=O)Nc3cc(C)on3)cc2)c1	MTT	CEM174	>100 µM
CCCN(Cc1cccc(OCCCCCC(=O)OCC)c1)C(=O)c1ccc(-c2ccc3c(c2)OCO3)cc1	-	RAJI	>20 µM
O=c1[nH]c(=S)n([C@@H]2O[C@H](CO)[C@@H](O)[C@@H]2O)cc1/C=C/c1ccccc1	-	RPMI8226	>258.7 µM
Cc1cc(NS(=O)(=O)c2ccc(NC(=S)NCCc3ccccc3)cc2)no1	MTT	CEM174	>100 µM
CC(C)(C)c1ccc(NC(=O)/C(F)=C\c2c[nH]c3ccccc23)cc1	MTT	Huh7.5	10.4 µM
CCOC(=O)c1cccc(N2Cc3c(c(OC)c4ccccc4c3OC)CC2=N)c1	neutral red	J774A.1 macrophages	98.25 µM
N#Cc1c(NCCc2cccs2)s[nH]c1=O	-	Huh7	>50 µM
CCCCCCCCCCCCCCCC(=O)Nc1ccn([C@H]2CC[C@@H](COP(=O)(O)O[C@H]3C[C@H](n4cc(C)c(=O)[nH]c4=O)O[C@@H]3CO)O2)c(=O)n1	XTT	CEM-X17	37.7 µM
Nc1nc(-c2ccc(Cl)cc2)cc(C2CCN(C(=O)c3ccc4c(c3)OCO4)CC2)n1	-	Jurkat cells (PMA-stimulated)	>5 µM
CC[C@@H]1/C=C(\C)C[C@H](C)C[C@H](OC)[C@H]2O[C@@](O)(C(=O)C(=O)N3CCCC[C@H]3C(=O)O[C@H](/C(C)=C/[C@H]3CC[C@H](O)[C@H](OC)C3)[C@H](C)[C@@H](O)CC1=O)[C@H](C)C[C@@H]2OC	-	HEK-297	14 µg/mL
Cc1ccc(NC(=O)NCCSCc2ccc(CNC(C)C)o2)cc1Cl	-	MAGI	>100 µM
C=Cc1cn([C@H]2C[C@H](O)[C@@H](CO)O2)c(=S)[nH]c1=O	-	RPMI8226	>290.3 µM
Nc1nc(NCC2CC2)c2ncn(/C=C3/C[C@@H]3CO)c2n1	-	BSCL-1	>175 µM
CC(=O)O[C@H]1[C@@H](Oc2c(C)c(O)c3c(=O)cc(C)oc3c2C)O[C@H](CO)[C@@H](O)[C@@H]1O	-	HEP-2	83.3 µg/mL
CCOC(=O)CCCCCOc1cccc(CN(C(=O)c2ccc(-c3ccc(C(C)=O)s3)cc2)C(C)C)c1	-	BJ	>20 µM
Nc1nc(=S)n([C@@H]2O[C@H](CO)[C@@H](O)[C@@H]2O)cc1/C=C/Br	-	RPMI8226	>258.7 µM
COc1ccc2c(c1)CN(c1nn3c(C)nnc3c3ccccc13)CC2	-	PBMC	0.97 µM
COC(=O)c1c(C)cc(=O)c(O)c(O)c1O	absorbance	CEM-SS	1.4 µM
COC1=CC(=O)c2c(O)c3c(c(O)c2C1=O)CC(C)(O)OC3	MTT	SupT1	5.1 µg/mL
COc1cc2c(cc1OC)C(C)=NCC2	-	BJ	<7.5 µM
Nc1nc(=O)n([C@@H]2O[C@H](CO)[C@@H](CO)[C@@H]2F)cc1F	-	PBM	≥100 µM
CN(C)c1cccc2c(S(=O)(=O)Nc3ccc(NC(=O)C(C)(C)C(=O)O)cc3)cccc12	-	Human embryonic lung fibroblasts	250 µM
COC(=O)c1ccc(NC(=S)Nc2ccc(S(=O)(=O)Nc3cc(C)on3)cc2)cc1	MTT	CEM174	>100 µM
CCOC(=O)CCCCCOc1cccc(CN(C(=O)c2ccc(-c3cccc(C(C)=O)c3)cc2)C(C)C)c1	-	RAJI	>20 µM
Cc1ccc(OCCc2cn(C[C@@]3(C)Cn4cc([N+](=O)[O-])nc4O3)nn2)cc1	MTT	J774	>40 µg/mL
C[C@@H]1CC[C@]2(C(=O)O)CC[C@]3(C)C(CCC4[C@@]5(C)CC[C@H](O)C(C)(C)C5CC[C@]43C)C2[C@H]1C	MTT	LLCMK2 cells	9.9 µg/mL
Cc1cc(NS(=O)(=O)c2ccc(NC(=S)Nc3ccccc3Cl)cc2)no1	MTT	CEM174	>100 µM

A second listing of 10 rows from above:

SMILES | read by | cells | value
COc1ccc2c(c1)c(/C=C(\C)C(=O)Nc1ccc(C(C)(C)C)cc1)cn2S(=O)(=O)Cc1ccccc1 | MTT | Huh7.5 | 66 µM
CCCN(Cc1cccc(OCCCCCC(=O)OCC)c1)C(=O)c1ccc(-c2ccc3c(c2)OCO3)cc1 | - | RAJI | >20 µM
COc1ccc(Cc2cc(C3CCN(C(=O)c4ccc(OC)c(OC)c4)CC3)nc(N)n2)cc1 | - | Jurkat cells (PMA-stimulated) | >5 µM
Cc1ccc(-c2ccccc2)n1NC(=O)c1ccncc1 | MTT | Vero cell | >100 µg/mL
CCCCOC(=O)c1ccc(NC(=S)Nc2ccc(S(=O)(=O)Nc3cc(C)on3)cc2)cc1 | MTT | CEM174 | >100 µM
C[C@]1(Cn2cc(CN3CCOCC3)nn2)Cn2cc([N+](=O)[O-])nc2O1 | MTT | J774 | >40 µg/mL
Cc1cc(NS(=O)(=O)c2ccc(NC(=S)Nc3ccc(C#N)cc3)cc2)no1 | MTT | CEM174 | >100 µM
N#Cc1c(NC2CCCCC2)s[nH]c1=O | - | Huh7 | >50 µM
Nc1ccc(-c2ccc(Nc3cc(=O)n(O)c4ncccc34)cc2)cc1 | ATP / luminescence | HOS | 2.44 µM
CCCCCOc1nc(N)nc2c1ncn2/C=C1/C[C@@H]1CO | - | BSCL-1 | 109 µM

Blank or dashed fields: not listed here. Rows are shuffled and stem from different studies. CCn is the concentration with n% toxicity to the cells.